Results taken from publication PMC6166989 (2018).

Molecular target: PV-2C-ΔN C323A (human poliovirus 1 (strain Mahoney))
Experiment: SEC

## PV-2C-ΔN C323A (domain or fragment)
  stoichiometry N: 4
